How the values were obtained:
[1] = target: YscI (recombinant, for GST pull-down) (Y. pestis, UniProt P69970)
[2] = target: SycD (recombinant, for GST pull-down) (Y. pestis, UniProt P21207); settings: both partners purified

Binder | binding result [1] | binding result [2]
YscF (recombinant, for GST pull-down) (natural protein) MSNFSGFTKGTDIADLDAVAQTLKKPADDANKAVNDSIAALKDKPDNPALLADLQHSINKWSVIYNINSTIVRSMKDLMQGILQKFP | binds | 
YscG (recombinant, for GST pull-down) (natural protein) MKYKLNVLLAEIALIGTGNHYHEEANCIAEWLHLKGEEEAVQLIRLSSLMNRGDYASALQQGNKLAYPDLEPWLALCEYRLGLGSALESRLNRLARSQDPRIQTFVNGMREQLKT |  | binds

From paper PMC3551969, “Identification of Novel Protein-Protein Interactions of Yersinia pestis Type III Secretion System by Yeast Two Hybrid System” (PLoS ONE, 2013)
